Protein sequences, listed by entry. Tags and fused reporters are not part of them.
Protease (Human immunodeficiency virus 1), Q9YQ12, UniProt Q9YQ12, entry or part of it V82F: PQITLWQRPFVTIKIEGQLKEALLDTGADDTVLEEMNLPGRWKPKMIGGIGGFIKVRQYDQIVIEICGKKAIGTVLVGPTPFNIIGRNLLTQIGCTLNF
Protease (Human immunodeficiency virus 1), Q9YQ12, UniProt Q9YQ12, entry or part of it G48V: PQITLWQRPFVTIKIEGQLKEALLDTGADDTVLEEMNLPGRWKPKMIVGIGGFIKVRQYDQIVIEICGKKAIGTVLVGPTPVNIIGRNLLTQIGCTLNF
Protease (Human immunodeficiency virus 1), Q9YQ12, UniProt Q9YQ12, entry or part of it V82A: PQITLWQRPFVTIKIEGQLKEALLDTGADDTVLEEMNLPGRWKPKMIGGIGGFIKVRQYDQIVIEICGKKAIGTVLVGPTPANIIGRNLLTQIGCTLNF

In ChEMBL document CHEMBL5505957 (Eur J Med Chem, 2024):

Legend:
Conditions in all cases: dose 100.0 nM
[1] = tested on: Protease (Human immunodeficiency virus 1), Q9YQ12 [V82F]
[2] = tested on: Protease (Human immunodeficiency virus 1), Q9YQ12 [G48V]
[3] = tested on: Protease (Human immunodeficiency virus 1), Q9YQ12 [V82A]

Measured: inhibition

COc1ccc(S(=O)(=O)N(CC(C)C)C[C@@H](O)[C@H](Cc2ccccc2)n2cc(CNC(=O)c3ccncc3)nn2)cc1
> 50%: all assays above

COC(=O)[C@@H](NC(=O)OCc1cn([C@@H](Cc2ccccc2)[C@H](O)CN(CC(C)C)S(=O)(=O)c2ccc(OC)cc2)nn1)c1ccccc1
> 50%: all assays above
